Results of unrelated studies side by side (data: NIAID ChemDB).

Shared fields: tests on isolated targets; species: Toxoplasma gondii

Lines come from different laboratories, so protocols vary. Inhibition is in % at the dose shown (toxicity tests: loss of growth or viability). ICn: concentration for n% inhibition.

O=c1[nH]cc(O)c(=O)[nH]1 ; read-out: IC50 ; strain: RH ; target: Uracil phosphoribosyltransferase ; value: >2000 µM
COC(=O)c1nc[nH]c1CO ; read-out: inhibition ; strain: RH ; target: Phosphoribosyltransferase ; dose: 900 µM ; value: <10%
Cc1c(CNc2ccc(C(=O)NC(CC(=O)O)C(=O)O)cc2)ccc2nc(N)nc(N)c12 ; read-out: IC50 ; strain: RH ; target: DHFR ; value: 0.00133 µM
CCc1c[nH]c(=S)[nH]c1=O ; read-out: IC50 ; strain: RH ; target: Uracil phosphoribosyltransferase ; value: >2000 µM
CC1(C)N=C(N)N=C(N)N1c1ccc(Cl)cc1Cl ; read-out: IC50 ; strain: RH ; target: DHFR ; value: 56 µM
Nc1ccc(S(=O)(=O)Nc2ccccc2)cc1 ; read-out: IC50 ; target: DHPS ; value: 1200 µM
CN(Cc1cnc2nc(N)nc(N)c2n1)c1c(F)cc(C(=O)N[C@H](CCC(=O)O)C(=O)O)cc1F ; read-out: IC50 ; strain: RH ; target: DHFR ; value: 0.099 µM
S=c1cc[nH]cc1 ; read-out: Ki ; strain: RH ; target: Uracil phosphoribosyltransferase ; value: 90 µM
Nc1ccc(S(=O)(=O)Nc2ccccc2C(=O)O)cc1 ; read-out: IC50 ; target: DHPS ; value: 740 µM
Cn1c(=O)cc[nH]c1=O ; read-out: IC50 ; strain: RH ; target: Uracil phosphoribosyltransferase ; value: >2000 µM
Cc1cnc(C)c(NS(=O)(=O)c2ccc(N)cc2)n1 ; read-out: inhibition ; target: DHPS ; dose: 340 µM ; value: 85%
O=C1CCNC(=O)N1 ; read-out: IC50 ; strain: RH ; target: Uracil phosphoribosyltransferase ; value: >2000 µM
Nc1nc(N)c2c(ccc3ccc(Cl)cc32)n1 ; read-out: IC50 ; strain: RH ; target: DHFR ; value: 0.011 µM
O=c1[nH]cc(Br)c(=O)[nH]1 ; read-out: IC50 ; strain: RH ; target: Uracil phosphoribosyltransferase ; value: >2000 µM
CC(O)CN1CNc2c1c(=O)n(C)c(=O)n2C ; read-out: IC50 ; strain: RH ; target: Phosphoribosyltransferase ; value: >900 µM
O=c1cc[nH]c(=O)o1 ; read-out: inhibition ; strain: RH ; target: Uracil phosphoribosyltransferase ; dose: 2000 µM ; value: <5%
S=c1[nH]ncc2[nH]cnc12 ; read-out: Ki ; strain: RH ; target: Phosphoribosyltransferase ; value: 30 µM
Nc1ccc(S(=O)(=O)Nc2cccc3ncccc23)cc1 ; read-out: IC50 ; target: DHPS ; value: 2400 µM
c1c[nH]cn1 ; read-out: IC50 ; strain: RH ; target: Phosphoribosyltransferase ; value: >900 µM
O=c1cn[nH]c(=S)[nH]1 ; read-out: inhibition ; strain: RH ; target: Uracil phosphoribosyltransferase ; dose: 2000 µM ; value: <5%
O=c1[nH]ncc2n[nH]nc12 ; read-out: IC50 ; strain: RH ; target: Phosphoribosyltransferase ; value: >900 µM
Cc1ccc2c(ccc3nc(N)nc(N)c32)c1 ; read-out: IC50 ; strain: RH ; target: DHFR ; value: 0.052 µM
C[n+]1cc2nccnc2[n+](C)c1 ; read-out: inhibition ; strain: RH ; target: Phosphoribosyltransferase ; dose: 900 µM ; value: <10%
Cc1ccc(-c2nc3c(N)nc(N)nc3nc2N)cc1 ; read-out: IC50 ; strain: RH ; target: DHFR ; value: 14.6 µM